Anti-infective test results gathered from many reports (values: NIAID ChemDB through PubChem).

Common to all: tests in culture; organism: HIV-1

Blank or dashed fields: not listed here. ECn is the concentration giving n% inhibition of infection, replication or growth. Conditions beyond the fields shown may differ between rows.

| compound | read-out | strain or isolate | setting | mutations | cell line | read by | result |
|---|---|---|---|---|---|---|---|
| CC(C)(C)NC(=O)[C@@H]1C[C@@H]2CCCC[C@@H]2CN1C[C@@H](O)[C@H](Cc1ccccc1)NC(=O)[C@H](CC(N)=O)NC(=O)c1ccc2ccccc2n1 | EC95 | NL4-3 | - | PR-I84V | MT-4 | p24 | 0.05 µM |
| CCc1c(Sc2ccccn2)n(COCc2ccccc2)c(=O)[nH]c1=O | EC50 | UC10-resistant (RT Y181C K101E) | - | RT-Y181C K101E | CEM + CEM-SS | cytopathic effect / XTT | >5 µM |
| CC(C)CN(C[C@@H](O)[C@H](Cc1ccccc1)NC(=O)O[C@H]1CCOC1)S(=O)(=O)c1ccc(N)cc1 | EC90 | NL4-3 | - | - | MT-4 | p24 | 0.08 µM |
| CC[C@H](C)[C@H](C(=O)O)N1C[C@H](CN2CCC(c3cc(Cc4ccc(OC)c(OC)c4)nn3CC)CC2)[C@@H](c2cccc(F)c2)C1 | EC95 | BaL | 50% human serum | - | PBMC | p24 | 0.028 µM |
| Nc1ccn([C@H]2CC[C@@H](CO)O2)c(=O)n1 | EC50 | RT P119S L214F | - | RT-P119S L214F | MT-2 | p24 | 1 µM |
| Cc1cn([C@H]2C=C[C@@H](CO)O2)c(=O)[nH]c1=O | EC50 | HXB2 | - | RT-A62V V75I F77L F116Y Q151M | MAGI (CCR5) + MAGI | β-galactosidase | 64 µM |
| C/C=C/CSc1cc(NC(=S)c2ccsc2C)ccc1Cl | EC50 | 3TC-RS (RT-M184I) | - | RT-M184I | CEM + CEM-SS | cytopathic effect / XTT | 0.1 µM |
| Cc1cn([C@H]2C[C@H](N=[N+]=[N-])[C@@H](CO)O2)c(=O)[nH]c1=O | EC50 | M709-1 Clinical isolate ZDV-resistant | - | RT-L210W T215Y | HT4 + HeLa | syncytia | 3 µM |
| CCn1nc(Cc2ccc(Oc3ccccc3)cc2)cc1C1CCN(C[C@H]2CN([C@@H](C(=O)O)C(C)(C)C)C[C@@H]2c2cccc(F)c2)CC1 | EC50 | BaL | - | - | HeLa | β-galactosidase | <0.0037 µM |
| Cc1cn([C@H]2C[C@H](N=[N+]=[N-])[C@@H](CO)O2)c(=O)[nH]c1=O | EC50 | RT P119S L214F | - | RT-P119S L214F | MT-2 | p24 | 0.018 µM |
| CCc1c(C(=O)c2cc(C)cc(C)c2)n(CC2CC=CC2)c(=O)[nH]c1=O | EC50 | 4XAZT/L100I (RT D67N K70R L100I T215Y K219Q) | - | RT-D67N K70R L100I T215Y K219Q | CEM + CEM-SS | cytopathic effect / XTT | 0.0001 µM |
| Cc1c(Sc2ccccc2)n(COCCO)c(=O)[nH]c1=O | EC50 | IIIB | - | - | CEM | syncytia | 7.5 µg/mL |
| CO[P@](=O)(c1cc(C)cc(/C=C/C#N)c1)c1c(C(N)=O)[nH]c2ccc(Cl)c(F)c12 | EC50 | IIIB | - | - | MT-4 | - | 0.001 µM |
| CCc1cc(NCc2nc3c(Cl)ccc(Cl)c3o2)c(=O)[nH]c1C | EC50 | HXB2 | - | - | MT-4 | antigen | ~0.06 µM |
| Cc1ccc(NC(=O)Nc2ccc(-c3ccc(NC(=O)Nc4ccc(-c5ccc(NC(=O)Nc6ccc(-c7ccc(NC(=O)Nc8ccc(C)cc8)cc7S(=O)(=O)O)c(S(=O)(=O)O)c6)cc5S(=O)(=O)O)c(S(=O)(=O)O)c4)cc3S(=O)(=O)O)c(S(=O)(=O)O)c2)cc1 | EC50 | RF | - | - | MT-4 | p24 | >15 µM |
| CCn1nc(Cc2ccc(C)cc2)cc1C1CCN(C[C@H]2CN([C@@H](C(=O)O)C(C)(C)C)C[C@@H]2c2cccc(F)c2)CC1 | EC90 | BaL | - | - | HeLa | β-galactosidase | <0.00014 µM |
| CCOP(=O)(COc1ccc(C[C@H](NC(=O)O[C@H]2CO[C@H]3OCC[C@H]32)[C@H](O)CN(CC(C)C)S(=O)(=O)c2ccc(OC)cc2)cc1)OCC | EC50 | IIIB | - | M200I | MT-2 | p24 / ELISA | 0.008 µM |
| Nc1ccn([C@H]2CC[C@@H](CO)O2)c(=O)n1 | EC50 | MN | - | - | PBL | p24 | 0.04 µM |
| Cc1cn([C@H]2C[C@H](N=[N+]=[N-])[C@@H](CO)O2)c(=O)[nH]c1=O | EC50 | IIIB/LAI | - | - | MOLT-4 (CLONE 8) + MOLT-4 | antigen | 0.0004 µM |
| CCc1c(Sc2ccccn2)n(COCc2ccccc2)c(=O)[nH]c1=O | EC50 | IIIB | - | - | CEM + CEM-SS | cytopathic effect / XTT | 0.008 µM |
| CCn1nc(Cc2ccccc2)cc1C1CCN(C[C@H]2CN([C@@H](C(=O)O)C3CCCCC3)C[C@@H]2c2cccc(F)c2)CC1 | EC50 | BaL | 50% human serum | - | HeLa | β-galactosidase | <0.1 µM |
| Cc1cn([C@H]2C[C@H](N=[N+]=[N-])[C@@H](CO)O2)c(=O)[nH]c1=O | EC50 | - | - | RT-M41L L74V V106A T215F | C8166 | p24 | 0.062 µM |
| CCn1nc(Cc2ccc(Oc3ccccc3)cc2)cc1C1CCN(C[C@H]2CN([C@@H](C(=O)O)C(C)C)C[C@@H]2c2cccc(F)c2)CC1 | EC50 | BaL | - | - | HeLa | β-galactosidase | <0.011 µM |
| CCN(c1nc(F)ccc1NC(C)(C)C)C1CCN(C(=O)c2cc3cc(NC(=O)N4CCN(C)CC4)ccc3[nH]2)CC1 | EC50 | IIIB | - | L441P | MT-2 | p24 / ELISA | 0.0261 µM |
| CC(C)(C)NC(=O)[C@@H]1C[C@@H]2CCCC[C@@H]2CN1C[C@@H](O)[C@H](Cc1ccccc1)NC(=O)[C@H](CC(N)=O)NC(=O)c1ccc2ccccc2n1 | EC50 | BCF07 | - | PR-L10V K20C M36I L63R A71V | PBMC | - | 0.0125 µM |
| COC(=O)[C@H](C)NP(=O)(OC[C@@H]1C=C[C@H](n2cc(C)c(=O)[nH]c2=O)O1)Oc1ccc(Br)cc1 | EC50 | S159-2 Clinical isolate ZDV-resistant | - | RT-M41L K103N T215Y | PBMC | p24 | 0.00078 µM |
| O=C1N(Cc2ccc(CO)cc2)[C@H](Cc2ccccc2)[C@H](O)[C@@H](O)[C@@H](Cc2ccccc2)N1Cc1ccc(CO)cc1 | EC95 | NL4-3 | - | PR-L63P V82T I84V | MT-4 | p24 | 3 µM |
| Nc1ncnc2c1ncn2[C@@H]1O[C@H](CO)C[C@@H]1F | EC50 | RT P119S V179D L214F | - | RT-P119S V179D L214F | MT-2 | p24 | 20 µM |
| CCn1nc(Cc2ccc(C(F)(F)F)cc2)cc1C1CCN(C[C@H]2CN([C@@H](C(=O)O)C3CCCCC3)C[C@@H]2c2cccc(F)c2)CC1 | EC50 | BaL | 50% human serum | - | HeLa | β-galactosidase | <0.033 µM |
| Cc1cn([C@H]2C[C@H](N=[N+]=[N-])[C@@H](CO)O2)c(=O)[nH]c1=O | EC50 | VAU (RT-A98G) | - | RT-A98G | PBMC | - | 0.01 µM |
| CCn1c(=O)c(C)cn([C@@H]2O[C@H](CO[Si](C)(C)C(C)(C)C)C3(OS(=O)(=O)C=C3N)[C@H]2O[Si](C)(C)C(C)(C)C)c1=O | EC50 | IIIB | - | - | CEM | syncytia | 0.06 µg/mL |
| CC[C@@H](C)[C@H](C(=O)O)N1C[C@H](CN2CCC(c3cc(Cc4ccc(-c5ccccc5)cc4)nn3CC)CC2)[C@@H](c2cccc(F)c2)C1 | EC50 | BaL | 50% human serum | - | HeLa | β-galactosidase | <0.3 µM |
| Cc1ccnc2c1NC(=O)c1cccnc1N2C1CC1 | EC50 | NL4-3 (RT V179D) | - | RT-V179D | CEM + CEM-SS | cytopathic effect / XTT | 0.03 µM |
| CCOCn1c(Cc2ccccc2)c(CC)c(=O)[nH]c1=O | EC50 | IIIB PYR(RT-Y181C) | - | RT-Y181C | CEM | syncytia | 0.11 µg/mL |
| O=C(O)P(=O)(O)O | EC50 | 8890 CLADE C CLADE C | - | - | PBMC | p24 | 6.72 µM |
| CC(C)=CCN1Cc2cc(Cl)cc3[nH]c(=S)n(c23)C[C@@H]1C | EC95 | - | - | RT-D67N K70R T215Y K219Q Y181C | MT-4 | - | >3 µM |
| c1cc(CN2CCCNCCNCCCNCC2)ccc1CN1CCCNCCNCCCNCC1 | EC50 | BAL R5 | - | - | PBMC | antigen | >25 µg/mL |
| O=c1[nH]cnc2c1ncn2[C@H]1CC[C@@H](CO)O1 | EC50 | HXB2 | - | RT-A62V V75I F77L F116Y Q151M | MAGI (CCR5) + MAGI | β-galactosidase | 52 µM |
| CC[C@H](C)[C@H](C(=O)O)N1C[C@H](CN2CCC(c3cc(Cc4ccc5ccccc5c4)nn3CC)CC2)[C@@H](c2cccc(F)c2)C1 | EC90 | BaL | 50% human serum | - | HeLa | β-galactosidase | 0.3 µM |
| Cc1cn([C@H]2C[C@H](N=[N+]=[N-])[C@@H](CO)O2)c(=O)[nH]c1=O | EC50 | IIIB | - | RT-V108I | CEM + CEM-SS | cytopathic effect / XTT | 0.04 µM |
| Cc1occc1C(=S)Nc1ccc(Cl)c(/C=N/OC(C)(C)C)c1 | EC50 | IIIB | - | - | CEMx174 + CEM | cytopathic effect / XTT | 0.6 µM |
| CCCCOc1ccc(Cc2cc(C3CCN(C[C@H]4CN([C@@H](C(=O)O)C(C)C)C[C@@H]4c4cccc(F)c4)CC3)n(CC)n2)cc1 | EC50 | BaL | - | - | HeLa | β-galactosidase | <0.011 µM |
| Nc1ncnc2c1ncn2CCOCP(=O)(O)O | EC50 | RT A62V/V75I/F77L/F116Y/Q151M | - | RT-A62V V75I F77L F116Y Q151M | MT-2 | p24 | 1.4 µM |
| CCc1cc(NCc2nc3c(Cl)ccc(Cl)c3o2)c(=O)[nH]c1C | EC50 | IIIB NEV(RT-V106A) | - | RT-V106A | CEM | syncytia | 0.08 µg/mL |
| CC(C)OC(=O)OCOP(=O)(CO[C@H](C)Cn1cnc2c(N)ncnc21)OCOC(=O)OC(C)C | EC50 | IIIB | - | - | PBMC | p24 | 0.005 µM |
| C#C[C@]1(CO)O[C@@H](n2cnc3c(N)nc(F)nc32)C[C@@H]1O | EC50 | Clinical isolate | - | M41L/A114S | MT4-GFP | fluorescence | 0.00331 µM |
| CCc1c(CC2CCCCC2)nc(SCC(=O)c2ccccc2)[nH]c1=O | EC50 | IIIB | - | DB-02 | C8166 | p24 / ELISA | 274 µM |
| CCNc1cccnc1N1CCN(C(=O)c2cc3cc(OC)ccc3[nH]2)CC1 | EC50 | IIIB TIBO R82913-resistant (RT K103N) | - | RT-K103N | CEM | syncytia | 1.7 µg/mL |
| Cc1ccnc2c1NC(=O)c1cccnc1N2C1CC1 | EC50 | IIIB HEPT-resistant (RT P236L) | - | RT-P236L | CEM + CEM-SS | cytopathic effect / XTT | 0.3 µM |
| CC(C)=CCN1Cc2cc(Cl)cc3[nH]c(=S)n(c23)C[C@@H]1C | EC50 | BCF03 | - | RT-A98G Y181C | PBMC | - | >6.25 µM |
| COC(=O)N[C@H](C(=O)N[C@@H](Cc1ccccc1)[C@@H](O)CN(Cc1ccc(-c2ccccn2)cc1)NC(=O)[C@@H](NC(=O)OC)C(C)(C)C)C(C)(C)C | EC50 | IIIB | - | 8374-P62 GS-8374-resistant | MT-2 | ATP | 0.0163 µM |

8 of the rows above, restated:

compound	read-out	strain or isolate	setting	mutations	cell line	read by	result
Cc1cn([C@H]2C[C@H](N=[N+]=[N-])[C@@H](CO)O2)c(=O)[nH]c1=O	EC50	IIIB	-	RT-V108I	CEM + CEM-SS	cytopathic effect / XTT	0.04 µM
c1cc(CN2CCCNCCNCCCNCC2)ccc1CN1CCCNCCNCCCNCC1	EC50	BAL R5	-	-	PBMC	antigen	>25 µg/mL
CO[P@](=O)(c1cc(C)cc(/C=C/C#N)c1)c1c(C(N)=O)[nH]c2ccc(Cl)c(F)c12	EC50	IIIB	-	-	MT-4	-	0.001 µM
CCc1cc(NCc2nc3c(Cl)ccc(Cl)c3o2)c(=O)[nH]c1C	EC50	HXB2	-	-	MT-4	antigen	~0.06 µM
CC[C@H](C)[C@H](C(=O)O)N1C[C@H](CN2CCC(c3cc(Cc4ccc5ccccc5c4)nn3CC)CC2)[C@@H](c2cccc(F)c2)C1	EC90	BaL	50% human serum	-	HeLa	β-galactosidase	0.3 µM
CCn1c(=O)c(C)cn([C@@H]2O[C@H](CO[Si](C)(C)C(C)(C)C)C3(OS(=O)(=O)C=C3N)[C@H]2O[Si](C)(C)C(C)(C)C)c1=O	EC50	IIIB	-	-	CEM	syncytia	0.06 µg/mL
CC(C)(C)NC(=O)[C@@H]1C[C@@H]2CCCC[C@@H]2CN1C[C@@H](O)[C@H](Cc1ccccc1)NC(=O)[C@H](CC(N)=O)NC(=O)c1ccc2ccccc2n1	EC50	BCF07	-	PR-L10V K20C M36I L63R A71V	PBMC	-	0.0125 µM
CCn1nc(Cc2ccccc2)cc1C1CCN(C[C@H]2CN([C@@H](C(=O)O)C3CCCCC3)C[C@@H]2c2cccc(F)c2)CC1	EC50	BaL	50% human serum	-	HeLa	β-galactosidase	<0.1 µM